Measured values reported in PMC11840927, “Frataxin Traps Low Abundance Quaternary Structure to Stimulate Human Fe–S Cluster Biosynthesis” (Biochemistry, 2025).
“And” between values parts separate entries of the source, which are not always exact repeats. Equal entries are not always repeated.

Biological target: the molecule itself
Assay: native MS; SDAec alone, EMR Orbitrap, 200 mM ammonium acetate pH 8.5; α2β2γ2 complex against αβγ protomers

B1: NFS1(Δ1–55)-ISD11(S11A)-ACPec complex with N-terminal His6 tag on NFS1 (complex, human | Escherichia coli)
chain 1: LRPLYMDVQATTPLDPRVLDAMLPYLINYYGNPHSRTHAYGWESEAAMERARQQVASLIGADPREIIFTSGATESNNIAIKGVARFYRSRKKHLITTQTEHKCVLDSCRSLEAEGFQVTYLPVQKSGIIDLKELEAAIQPDTSLVSVMTVNNEIGVKQPIAEIGRICSSRKVYFHTDAAQAVGKIPLDVNDMKIDLMSISGHKIYGPKGVGAIYIRRRPRVRVEALQSGGGQERGMRSGTVPTPLVVGLGAACEVAQQEMEYDHKRISKLSERLIQNIMKSLPDVVMNGDPKHHYPGCINLSFAYVEGESLLMALKDVALSSGSACTSASLEPSYVLRAIGTDEDLAHSSIRFGIGRFTTEEEVDYTVEKCIQHVKRLREMSPLWEMVQDGIDLKSIKWTQH
chain 2: MAASSRAQVLALYRAMLRESKRFSAYNYRTYAVRRIRDAFRENKNVKDPVEIQTLVNKAKRDLGVIRRQVHIGQLYSTDKLIIENRDMPRT
chain 3: MSTIEERVKKIIGEQLGVKQEEVTNNASFVEDLGADSLDTVELVMALEEEFDTEIPDEEAEKITTVQAAIDYINGHQA
modifications: covalently attached PLP | acyl-4′PPT (assumed mass 523 Da)
notes: NFS1, human cysteine desulfurase, Δ1–55 (residues 56 to the C-terminus); ISD11 (LYRM superfamily), human, S11A; Escherichia coli acyl-carrier protein (ACPec) associated with NFS1-ISD11; Used uniformly 14N or 15N labelled in the exchange experiments; Calculated masses excluded the N-terminal methionine if present; also called SDAec; His-tagged SDAec; not shown: His6, N-terminal, kept; copies: 2 + …
- stoichiometry N: 2 and 4
